The record followed here is the supplement of paper PMC9931576.

Common to all, as to experiment: pseudovirus neutralization IC50; higher = weaker neutralization
The target in assay [1] is SARS-CoV-2 Omicron BA.1 spike pseudovirus. As to the method:
(§1)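 Single-round VSV luciferase pseudovirus mixed with antibody dilutions for 1 h and put on Huh-7 cells for about a day; IC50 from the dose curve.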

Assay [2] concerns the target SARS-CoV-2 Omicron BA.2 spike pseudovirus. As for the experimental part:
as §1

Assay [3] concerns the target SARS-CoV-2 Omicron BA.2.75 spike pseudovirus. As for the experimental part:
as §1

Assay [4] deals with SARS-CoV-2 Omicron BA.5 spike pseudovirus. As to the method:
as §1

The target in assay [5] is SARS-CoV-2 Omicron BQ.1.1 spike pseudovirus. As for the experimental part: as §1
Assay [6] concerns the target SARS-CoV-2 Omicron XBB spike pseudovirus. As for the experimental part: as §1
Assay [7] has as its target SARS-CoV-2 early D614G spike pseudovirus. As to the method:
as §1

Human monoclonal antibodies against the spike receptor-binding domain (heavy:light variable regions). IC50 against pseudoviruses bearing the spike of naturally observed variants; lower = stronger; >10 µg/ml means not reached at the top dose. No active / inactive call. The stated detection limit is 0.0005 µg/ml; values near or below 0.001 µg/ml lie at the floor of the assay.

B1: BD56-098 (protein)
chain 1: QVQLQQWGAGLVKPSETLSLTCAVYGGSLSGYYWSWIRQSPGKGLEWIGEINDSGSTNYNPSLKSRVTISVGTSKNHFSLKLSSVTAADTAVYYCAREVHYDTLTGQPLPGSFDAFDIWGQGTMVTVSS
chain 2: QSVLTQPPSASGTPGQRVTISCSGSSSNIGINSVNWYQQFPGTAPKLLIYSNDQRPSGVPGRFSGSKSGTSASLAISGLQSEDEADYYCAAWDESLNGVVFGGGTKLTVL
With B1, the “pseudovirus neutralization IC50” value in assay [1] is 0.0825 µg/mL; in assay [2], 0.0575 µg/mL; in assay [3], 0.0532 µg/mL; in assay [4], over 10 µg/mL; in assay [5], over 10 µg/mL; in assay [6], over 10 µg/mL. In assay [7], the “pseudovirus neutralization IC50” value worked out at 0.0257 µg/mL.

B2: BD56-101 (protein)
chain 1: EVQLVESGGALVQPGGSLRLSCAASGFTFNDYDLHWVRQATGKGLEWVSGTGTAGDTYYSDSVKGRFTISRENAKNSLYLQMNGLRAADTAVYYCARGDSSSWEYYFDYWGQGTLVTVSS
chain 2: DIQMTQSPSSLSASVGDRVSITCRASQSIGSYLNWYQLRPGKAPKLLIYAASSLQSGVPSRFTGSGSGTYFTLTISSLQPEDFATYCCQQSYSAPPWTFGQGTKVEVK
Turning to B2, the “pseudovirus neutralization IC50” value in assay [1], in assay [2], in assay [3], in assay [4], in assay [5] and in assay [6] was over 10 µg/mL each time. Besides, the “pseudovirus neutralization IC50” value in assay [7] is over 10 µg/mL.

B3: BD56-097 (protein)
chain 1: QVQLVESGGGVVQPGRSLRLSCAVSGFTFSNYSMHWVRQAPGKGLEWVAVILDDGSFKNYVDSVKGRFSISRDNSRKTVYLQMNSLRVEDTAVYYCARDYGVTTTYFDYWGQGTLVTVSS
chain 2: DIQMTQSPSSLSASVGDRVTISCRASQSIRSDLNWYQRQPGKAPKLLIYVASNLQNGVPSRFSGSGSGTDFTLTISNLQPEDFATYYCQQSYSTPPWTFGQGTTVEIK
Consider B3, for which the “pseudovirus neutralization IC50” value in assay [1], in assay [2], in assay [3], in assay [4], in assay [5] and in assay [6] was over 10 µg/mL in each case. Moreover, in assay [7], the “pseudovirus neutralization IC50” value is over 10 µg/mL.

B4: BD56-100 (protein)
chain 1: EVQLLVSGGGLVRPGGSLRLSCAASGFTFSTCAMTWVRQAPGKGLECVSVIHGGGNSTYYAESVRGRFTIYRDTSKNTLYLQMNSLRADDTAIYYCAKSPQARTTLELRGAPDYFDFWGQGTLVSVSS
chain 2: SYVLTQPPSVTVAPRQTARVTCGGDDIGSKSVHWYQQKPGQAPVLVIYYDNDRPSGIPERFSGSNSGNTATLTISRVEAGDEADYYCQVWDGTSAHFWVFGGGTKLTVL
On to B4, for which the “pseudovirus neutralization IC50” value in assay [1], in assay [2], in assay [3], in assay [4], in assay [5] and in assay [6] was over 10 µg/mL in each case. Moreover, in assay [7], the “pseudovirus neutralization IC50” value was over 10 µg/mL.

B5: BD56-114 (protein)
chain 1: EVQLLVSGGGLVQPGGSLRLSCAASGFTFSSCAMTWVRQAPGKGLECVSVIYGGGNSTYYADSVKGRFTIYRDTSKNTLYLQMNSLRADDTAIYYCAKSPQPRTTLELRGAPDYFDFWGQGTLVSVSS
chain 2: SYVLTQPPSVTVAPRQTARVTCGGDDIGSKSVHWYQQKPGQAPVLVIYYDNDRPSGIPERFSGSNSGNTATLTISRVEAGDEADYYCQVWDGTSAHFWVFGGGTKLTVL
Take B5: the “pseudovirus neutralization IC50” value in assay [1], in assay [2], in assay [3], in assay [4], in assay [5] and in assay [6] was over 10 µg/mL throughout. Moreover, in assay [7], the “pseudovirus neutralization IC50” value was over 10 µg/mL.

B6: BD56-111 (protein)
chain 1: QVHLVESGGGVVQPGRSLRLACAASGFTFSSYSMHWVRQAPGKGLEWVAVILYDGSYRDYTDSVKGRFTISRDNSKNTLYLQLNSPRPEDTAVYYCARDEGATVTHFDYWGQGTLVTVS
chain 2: DIQMTQSPSSLSASVGDRVTITCRASQSVRRDVNWYQQKSGKAPKLLIYSASSVQSGVPSRFSGSGSGTEFTLTISSLQPEDFATYYCQQSYNTPPWTFGQGTKVEIK
B6: the “pseudovirus neutralization IC50” value was 3.22 µg/mL in assay [1]; 3 µg/mL in assay [2]; 2.97 µg/mL in assay [3]; 2.96 µg/mL in assay [4]; 7.3 µg/mL in assay [5]; 5.38 µg/mL in assay [6]. Moreover, the “pseudovirus neutralization IC50” value in assay [7] was 1.7 µg/mL.

B7: BD56-107 (protein)
chain 1: EVHLVESGGGLVQPGGSLRLSCAVSGFTFSTYDMHWVRQVAGKGLEWVAGIGTAGDTYYLDSVKGRFTISRENAENSLYLQMNSLRAGDTAVYYCTRANFNFLTGYTPHFDYWGQGTLVTVSS
chain 2: DIQMTQSPSSLSASVGDRVTITCRASQYISTNLNWYQQKPGRAPKLLIYAASNLQSGVPSRFSGSGSGTDFTLTISSLRPEDFAIYHCQQSHSTPGLTFGQGTRLEIK
For the molecule B7, the “pseudovirus neutralization IC50” value in assay [1] was over 10 µg/mL; in assay [2], 8.43 µg/mL; in assay [3], over 10 µg/mL; in assay [4], 8.63 µg/mL; in assay [5], over 10 µg/mL; in assay [6], over 10 µg/mL. Also, the “pseudovirus neutralization IC50” value in assay [7] stood at 1.71 µg/mL.

B8: BD56-121 (protein)
chain 1: EVQLVESGGGLVKPGGSLRLSCAASGFSFNNYEMNWVRQAPGKGLEWVSYISRSGGPIYYADSVKGRFTISRDNAKNSLYLQMNSLRVEDTAVYYCARDFDWLLDDEPGAFDIWGQGTMVTVSS
chain 2: EIVLTQSPGTLSLSPGERATLSCRASQSVSSTYLAWYQQKPGQAPRLLIYGALSRAAGIPDRFSGSGSGTDFTLTISRLEPEDFAVYYCQQYGSSALTFGGGTKVEIK
As to B8, the “pseudovirus neutralization IC50” value in assay [1], in assay [2], in assay [3], in assay [4], in assay [5] and in assay [6] was over 10 µg/mL each time. Also, the “pseudovirus neutralization IC50” value in assay [7] is over 10 µg/mL.

B9: BD56-099 (protein)
chain 1: QVQLQESGPGLVKPSQTLSLTCTVSGGSISSGSYYWSWIRQPAGKGLEWIGRIYPTGSTNYNPSLKSRVAISVDTSKKQFYLKLSSVTAADTAVYYCVRERNPTIFEVADDLPEVCWGQGTLVTVSS
chain 2: DIQMTQSPSSLSASVGDRVTITCQASQDISNYLNWYQQKPGKAPKLLIYDASNLETGVPSRFSGSGSGTDFTFTISSLQPEDIATYYCQQLDNLVTFGGGTKVEIK
As for B9, the “pseudovirus neutralization IC50” value is 0.0507 µg/mL in assay [1]; 0.031 µg/mL in assay [2]; 0.0433 µg/mL in assay [3]; over 10 µg/mL in assay [4]; over 10 µg/mL in assay [5]; over 10 µg/mL in assay [6]. Further, the “pseudovirus neutralization IC50” value in assay [7] amounted to 0.0566 µg/mL.

B10: BD56-112 (protein)
chain 1: QVQLVQSGAEVKKPGSSVKVSCKASESTFSSYAINWVRQAPGQGLEWMGGIVPIFGTTDYAQKFEGRVTITADESTSTAYMDLSSLRSDDTALYYCARDLEYSPLYGMDVWGQGTTVTVSS
chain 2: DIQLTQSPSTLSASVGDRVTITCRPSQSISTYLNWYQQKPGSNPKLLIYAASTLQSGVPSRFSGSGSGTGFTLTISSLQPEDFATYYCQQSYSTPRTFGQGTKLEIK
B10: the “pseudovirus neutralization IC50” value in assay [1] was 0.427 µg/mL; in assay [2], 0.251 µg/mL; in assay [3], 0.218 µg/mL; in assay [4], 3.59 µg/mL; in assay [5], over 10 µg/mL; in assay [6] it was over 10 µg/mL. For the same molecule, the “pseudovirus neutralization IC50” value in assay [7] turned out to be 0.463 µg/mL.

B11: BD56-104 (protein)
chain 1: QVQLVQSGAEVKTPGSSVKVSCKASGGTFGSHSITWVRQAPGQGLEWMGRVIPILGIPDFAESFQGRVAITADRSTSTAHMELSRLRSEDTAVYYCARDVGYSGSGSSNYFDSWGQGTLVTVSS
chain 2: QSVLTQPPSVSGAPGQRVTISCTGSNSNIGAGYDVHWYRQLPGTAPKLLIYVNNNRPSGVPDRFSGSRSGASASLAITGLQAEDEAEYYCQSYDSSLSGSIFGGGTKLTVL
Take B11: the “pseudovirus neutralization IC50” value in assay [1] amounted to 0.0156 µg/mL; in assay [2], 0.0138 µg/mL; in assay [3], 0.0142 µg/mL; in assay [4], 0.0187 µg/mL; in assay [5], 0.836 µg/mL; in assay [6] it was 1.76 µg/mL. In assay [7], the “pseudovirus neutralization IC50” value was determined as 0.0182 µg/mL.

B12: BD56-113 (protein)
chain 1: QVQLVQSGAEVKKPGSSVKVSCKASGGTFNNYPISWVRQAPGQGLEWMGSIIPIIGIATYAQKFQGRVTITADKSTSTAYMQLSSLRSEDTAVFYCARGVGYSGSGSSNYFDYWGQGTLVTVSS
chain 2: QSVLTQPPSVSGAPGQRVTISCTGSNSNIGAGYDVHWYRQLPGTAPKLLIYVNNNRPSGVSDRFSGSKSGTSASLAITGLQAEDEADYYCQSYDSSLIGSVFGGGTKLTVL
On to B12, for which the “pseudovirus neutralization IC50” value in assay [1] is 0.693 µg/mL; in assay [2] it was 0.561 µg/mL; in assay [3] it was 0.464 µg/mL; in assay [4], 2.37 µg/mL; in assay [5], 7.54 µg/mL; in assay [6] it was over 10 µg/mL. Besides, in assay [7], the “pseudovirus neutralization IC50” value turned out to be 0.868 µg/mL.
